ChEMBL document CHEMBL1156508, “Structure/function characterization of micro-conotoxin KIIIA, an analgesic, nearly irreversible blocker of mammalian neuronal sodium channels” (2007)

Key:
[1] = system: Mus musculus; assay: Toxicity against Swiss Webster mouse formalin-induced pain model at 3 nmol, ip by rotarod test; details: in vivo
[2] = system: Mus musculus; assay: Antiinflammatory activity against formalin-induced pain in ip dosed Swiss Webster mouse assessed as reduction of paw licking
[3] = system: Mus musculus; assay: Toxicity against Swiss Webster mouse formalin-induced pain model at 10 nmol, ip assessed as paralytic activity by rotarod test; details: in vivo

In the case of `N=C(N)NCCC[C@@H]1NC(=O)[C@H](CO)NC(=O)[C@H](Cc2cnc[nH]2)NC(=O)[C@H](CC(=O)O)NC(=O)[C@H](CCCNC(=N)N)NC(=O)[C@@H]2CSSC[C@H](N)C(=O)N[C@H]3CSSC[C@H](NC1=O)C(=O)N[C@H](C(N)=O)CSSC[C@H](NC(=O)[C@@H](CC(N)=O)NC3=O)C(=O)N[C@@H](CO)C(=O)N[C@@H](CO)C(=O)N[C@@H](CCCCN)C(=O)N[C@@H](Cc1c[nH]c3ccccc13)C(=O)N2`, the Activity [1] is reported as “Non-toxic”, the ED50 [2] is reported as 1.6 nmol and the Activity [3] is reported as “Non-toxic”.
